Measured values from several laboratories, pooled; numbers as filed in NIAID ChemDB.

All rows: growth or infection tests; species: Mycobacterium avium complex; endpoint: MIC

Blank or dashed fields: not listed here. Lines come from different laboratories, so protocols vary.

| SMILES | strain or isolate | result |
|---|---|---|
| CCCCCCCCNC(=O)O[C@H]1C(O[C@@H]2[C@@H](C)[C@H](O[C@H]3C[C@@](C)(OC)[C@@H](OC(C)=O)[C@H](C)O3)[C@@H](C)C(=O)O[C@H](CC)[C@@](C)(O)[C@H](O)[C@@H](C)/C(=N/OCCCC3CCCCC3)[C@H](C)CC2(C)O)O[C@H](C)C[C@@H]1N(C)C | 20096 | 0.2 µg/mL |
| CN(C)C/C=C(/c1ccc(-c2ccc(Br)cc2)cc1)c1ccc([N+](=O)[O-])cc1 | - | 73 µg/mL |
| CC[C@H]1OC(=O)[C@H](C)[C@@H](O[C@H]2C[C@@](C)(OC)[C@@H](O)[C@H](C)O2)[C@H](C)[C@@H](O[C@@H]2O[C@H](C)C[C@H](N(C)C)[C@H]2O)[C@](C)(O)C[C@@H](C)/C(=N\OCOCCOC)[C@H](C)[C@@H](O)[C@]1(C)O | CIPT 140310002 | 1 µg/mL |
| CN(C)C/C=C(\c1ccc(O)cc1)c1ccc(-c2ccc(Br)cc2)cc1 | - | 39 µg/mL |
| Cc1noc(NS(=O)(=O)c2ccc(N)cc2)c1C | D-3 | 25 µg/mL |
| CC[C@H]1OC(=O)[C@H](C)[C@@H](OC2C[C@@](C)(OC)[C@@H](O)[C@H](C)O2)[C@H](C)[C@@H](O[C@@H]2O[C@H](C)C[C@H](N(C)C)[C@H]2O)C(C)(O)C[C@@H](C)/C(=N\OCc2ccccc2)[C@H](C)[C@@H](O)[C@]1(C)O | 20039 (clarithromycin-susceptible) | 3.13 µg/mL |
| OC[C@H]1O[C@@H](CSc2ccccc2)[C@@H](O)[C@@H]1O | 3 strains | >64 µg/mL |
| CCCCNC(=O)O[C@H]1C(O[C@@H]2[C@@H](C)[C@H](O[C@H]3C[C@@](C)(OC)[C@@H](OC(C)=O)[C@H](C)O3)[C@@H](C)C(=O)O[C@H](CC)[C@@](C)(O)[C@H](O)[C@@H](C)/C(=N/OCCCC3CCCCC3)[C@H](C)CC2(C)O)O[C@H](C)C[C@@H]1N(C)C | 20045 | 0.2 µg/mL |
| CCCCCCCCCCCCNNC(=O)O[C@H]1[C@H](O[C@@H]2[C@@H](C)[C@H](O[C@H]3C[C@@](C)(OC)[C@@H](OC(C)=O)[C@H](C)O3)[C@@H](C)C(=O)O[C@H](CC)[C@@](C)(O)[C@H](O)[C@@H](C)/C(=N/OCCCC3CCCCC3)[C@H](C)CC2(C)O)O[C@H](C)C[C@@H]1N(C)C | 20092 (clarithromycin-resistant) | 50 µg/mL |
| CN(C)C/C=C(/c1ccccc1)c1ccc(-c2ccc(Br)cc2)cc1 | - | 40 µg/mL |
| CO[C@H]1/C=C/O[C@@]2(C)Oc3c(C)c(O)c4c(O)c(c(/C=N/N5CCN(C/C=C/c6ccccc6)CC5)c(O)c4c3C2=O)NC(=O)/C(C)=C\C=C\[C@H](C)[C@H](O)[C@@H](C)[C@@H](O)[C@@H](C)[C@H](OC(C)=O)[C@@H]1C | N-444 | 0.78 µg/mL |
| C#CCNC(=O)O[C@H]1C(O[C@@H]2[C@@H](C)[C@H](O[C@H]3C[C@@](C)(OC)[C@@H](OC(C)=O)[C@H](C)O3)[C@@H](C)C(=O)O[C@H](CC)[C@@](C)(O)[C@H](O)[C@@H](C)/C(=N/OCCCC3CCCCC3)[C@H](C)CC2(C)O)O[C@H](C)C[C@@H]1N(C)C | 20045 | 0.2 µg/mL |
| OC[C@H]1N[C@@H](CSc2ccccc2)[C@@H](O)[C@@H]1O | 3 strains | 4 µg/mL |
| CCN=c1cc2n(-c3ccc(Cl)cc3)c3ccccc3nc-2cc1Nc1ccc(Cl)cc1 | 715 | 0.25 µg/mL |
| CCCCCCC(C)c1ccc2c(c1)C(=O)c1nc3ccncc3c(=O)n1-2 | 19075 | 0.06 µg/mL |
| CC(C)N=c1cc2n(-c3ccc(Cl)cc3)c3ccccc3nc-2cc1Nc1ccc(Cl)cc1 | 211 | 1 µg/mL |
| CCNC(=O)O[C@H]1C(O[C@@H]2[C@@H](C)[C@H](O[C@H]3C[C@@](C)(OC)[C@@H](OC(C)=O)[C@H](C)O3)[C@@H](C)C(=O)O[C@H](CC)[C@@](C)(O)[C@H](O)[C@@H](C)/C(=N/OCCCC3CCCCC3)[C@H](C)CC2(C)O)O[C@H](C)C[C@@H]1N(C)C | 20096 | >50 µg/mL |
| CN(C)C/C=C(/c1ccc(Br)cc1)c1ccc(-c2ccc(Br)cc2)cc1 | - | 34 µg/mL |
| CC[C@H]1OC(=O)[C@H](C)[C@@H](OC2C[C@@](C)(OC)[C@@H](O)[C@H](C)O2)[C@H](C)[C@@H](O[C@@H]2O[C@H](C)C[C@H](N(C)C)[C@H]2O)C(C)(O)C[C@@H](C)/C(=N\OCCC2CCCCC2)[C@H](C)[C@@H](O)[C@]1(C)O | 20096 (clarithromycin-resistant) | 50 µg/mL |
| Cc1ccc(/C(=C\CN(C)C)c2ccc(-c3ccc(Br)cc3)cc2)cc1 | - | 79 µg/mL |
| CC[C@H]1OC(=O)[C@H](C)[C@@H](O[C@H]2C[C@@](C)(OC)[C@@H](OC(C)=O)[C@H](C)O2)[C@H](C)[C@@H](OC2O[C@H](C)C[C@H](N(C)C)[C@H]2OC(=O)NC)C(C)(O)C[C@@H](C)/C(=N\OCCCC2CCCCC2)[C@H](C)[C@@H](O)[C@]1(C)O | 20034 | 12.5 µg/mL |
| Cc1c(F)c(N2CCNC(C)C2)cc2c1c(=O)c(C(=O)O)cn2C1CC1 | clinical strain 1 | 8 µg/mL |
| CN(C)CC=C(c1ccccc1)c1ccc(-c2ccc(Br)cc2)cc1 | - | 40 µg/mL |